Experimental data as given in the supplement of paper PMC3578754.

Assays:
Test in all cases: fold change of IC50 against reference virus; higher = more resistant; Cell-culture drug susceptibility tests of virus bearing the protease of each isolate, gathered from many studies.
ritonavir = compound: CC(C)c1nc(CN(C)C(=O)N[C@H](C(=O)N[C@@H](Cc2ccccc2)C[C@H](O)[C@H](Cc2ccccc2)NC(=O)OCc2cncs2)C(C)C)cs1 [ritonavir]
indinavir = compound: CC(C)(C)NC(=O)[C@@H]1CN(Cc2cccnc2)CCN1C[C@@H](O)C[C@@H](Cc1ccccc1)C(=O)N[C@H]1c2ccccc2C[C@H]1O [indinavir]
saquinavir = compound: CC(C)(C)NC(=O)[C@@H]1C[C@@H]2CCCC[C@@H]2CN1C[C@@H](O)[C@H](Cc1ccccc1)NC(=O)[C@H](CC(N)=O)NC(=O)c1ccc2ccccc2n1 [saquinavir]

Test System	fold change of IC50 against reference virus (ritonavir)	fold change of IC50 against reference virus (indinavir)	fold change of IC50 against reference virus (saquinavir)
HIV-1 isolate 10 (protease changes: L10Y L63P I64V I84V L90M, study 57)	1	2	6
HIV-1 isolate 49 (protease changes: I13V V32I M46I I47V L63P I64V Q92L I93L, study 130)	8	8	1
HIV-1 isolate 78 (protease changes: L63P V82T I84V, study 91)	3.7	2	2
HIV-1 isolate 95 (protease changes: L10I I15V I62V L63P A71V I72T G73S V77I L90M, study 57)	5	10	5
HIV-1 isolate 98 (protease changes: L10H L24I E35D N37D M46I L63P V82A Q92K, study 130)	8	8	4
HIV-1 isolate 106 (protease changes: M46I R57G L63P A71V V82F I84V, study 5)	27	10	3
HIV-1 isolate 110 (protease changes: L10I Q18E K20R L33I E35D M36I I54V L63P V82F L89M I93L, study 130)	8	1	1
HIV-1 isolate 140 (protease changes: L10R L63P V82T I84V, study 91)	1.8	1	4
HIV-1 isolate 155 (protease changes: L10R K20I L24I M46I I54V R57K L63P A71V G73S V82T, study 130)	8	30	8
HIV-1 isolate 166 (protease changes: M46I L63P V82T, study 91)	3.7	4	1
HIV-1 isolate 180 (protease changes: I84V, study 91)	1	0.5	2
HIV-1 isolate 205 (protease changes: M46I, study 91)	1	–	1
HIV-1 isolate 237 (protease changes: L63P, study 91)	1.8	0.5	2
HIV-1 isolate 251 (protease changes: L63P V82T, study 91)	1.8	1	1
HIV-1 isolate 261 (protease changes: L10R M46I V82T, study 91)	1.8	2	1
HIV-1 isolate 320 (protease changes: R41K I54V I62V L63P V77I V82A, study 130)	8	30	4
HIV-1 isolate 369 (protease changes: L10R L63P V82T, study 91)	3.7	2	1
HIV-1 isolate 387 (protease changes: Q18L A71V V77I I84V L90M, study 57)	4	3	16
HIV-1 isolate 411 (protease changes: L10I K20M L24I E35D M36I R41K I54V L63P A71T V82A, study 130)	8	15	8
HIV-1 isolate 420 (protease changes: E35D N37D I54V L63P V82A, study 130)	8	4	1
HIV-1 isolate 425 (protease changes: L10R M46I L63P V82T, study 91)	3.7	4	1
HIV-1 isolate 442 (protease changes: L10I T12S I13V L33I M36I M46I I64V V82F I84V L89M, study 130)	8	30	2

Test System	fold change of IC50 against reference virus (ritonavir)	fold change of IC50 against reference virus (indinavir)	fold change of IC50 against reference virus (saquinavir)
HIV-1 isolate 443 (protease changes: L10I R41K M46I I54V I62V L63P A71V V77I V82A L90M I93L, study 130)	8	30	8
HIV-1 isolate 476 (protease changes: L10I M46I L63P V77I I84V N88T I93L, study 130)	2	30	2
HIV-1 isolate 566 (protease changes: I13V K20R M36I N37D L63P I64V L90M, study 57)	3	3	6
HIV-1 isolate 617 (protease changes: L10I L24I M46L I54V L63P A71V V82A, study 130)	8	30	1
HIV-1 isolate 675 (protease changes: K20R L33F M36I I54V V82S, study 38)	17	4	1
HIV-1 isolate 697 (protease changes: R57G I84V, study 5)	7	5	2
HIV-1 isolate 730 (protease changes: L10R M46I L63P, study 91)	1	0.5	1
HIV-1 isolate 737 (protease changes: L10I I15V L24I M36I P39S I54V I62V L63P A71V V82A, study 130)	8	8	2
HIV-1 isolate 771 (protease changes: M46I L63P, study 91)	1	0.5	1
HIV-1 isolate 807 (protease changes: M46I L63P, study 91)	1.8	1	1
HIV-1 isolate 836 (protease changes: L24I M46I I64V E65I V82F I93L, study 130)	2	4	1
HIV-1 isolate 840 (protease changes: L10I M46I I54V Q58E L63P I64V V77I V82F L90M I93L, study 130)	8	30	8
HIV-1 isolate 898 (protease changes: V32I M46I L63A I64M A71V I72V V82A Q92R, study 130)	8	15	1
HIV-1 isolate 902 (protease changes: L10R L63P, study 91)	1	0.5	1
HIV-1 isolate 917 (protease changes: M46I V82T I84V, study 91)	3.7	1	2
HIV-1 isolate 944 (protease changes: R57G V82F, study 5)	5	3	2
HIV-1 isolate 1006 (protease changes: M46I L63P V82T I84V, study 91)	3.7	8	8
HIV-1 isolate 1065 (protease changes: M46I R57G, study 5)	1	–	–
HIV-1 isolate 1467 (protease changes: R57G A71V, study 5)	1	–	–
HIV-1 isolate 1512 (protease changes: R57G L63P, study 5)	1	–	–
HIV-1 isolate 1566 (protease changes: M46I R57G I84V, study 5)	7	–	–

Fold change is the IC50 on the isolate divided by the IC50 on a reference virus; 1 = unchanged, higher = more resistant. Changes are given against the subtype B consensus. No active / inactive call. The values were gathered from many studies (numbered anew) with different assays, which the source does not name. Most viruses are clinical isolates; some are laboratory strains or clones with known resistance changes. Isolates with mixed residues are left out; stretches that were not sequenced show no change. Round top values that many isolates share are read here as limits; other very high values and 0.1 may be limits too. The protease changes I3V and N37S, insertions and deletions cannot be read from the source.
